Results of unrelated studies side by side (data: NIAID ChemDB).

All rows: tests in culture; species: Mycobacterium tuberculosis

a–b is a range or a potency band. ECn: concentration that inhibits the pathogen or its effect by n%. A number after MIC or MFC names an inhibition level or a share of isolates. Blank or dashed fields: not listed here. MIC bound: limit read from a one-dose screen. Lines come from different laboratories, so protocols vary. Inhibition is in % at the dose shown (toxicity tests: loss of growth or viability).

smiles	strain or isolate	conditions	dose	method	endpoint	mutations	result
O=c1[nH]c2c(Cl)c(Cl)ccc2c(O)c1N=Nc1ccc([N+](=O)[O-])cc1	H37Rv		6.25 µg/mL	resazurin	inhibition		89%
CCCCCCCCCCCCCCCCCCNCCN[C@H]1C[C@H]2CC[C@]1(C)C2(C)C					MIC		25 µM
Cc1ccc2c3c(c(=O)oc2c1)C(C)CC(C)(CO)O3	H37Rv			BACTEC	MIC bound		>12.5 µg/mL
Cc1c(Cl)cccc1N=Nc1c(O)c2cccc([N+](=O)[O-])c2[nH]c1=O	H37Rv			resazurin	MIC		<6.25 µg/mL
C[C@H]1COc2c(N3CCN(C)CC3)c(F)cc3c(=O)c(C(=O)O)cn1c23	Strain 158				MIC		>16 µg/mL
Nc1ccc(O)c2c1C(=O)c1c(O)c(S(=O)(=O)O)cc(N)c1C2=O	H37Rv			BACTEC	MIC bound		>12.5 µg/mL
Clc1ccc(-n2ncc(C(c3ccccc3)n3ccnc3)c2-c2ccccc2Cl)c(Cl)c1	ATCC 35822 (isoniazid-resistant)				MIC90		>100 µM
CCCCCCCCOc1cccc(NC(=O)OCCN2CCOCC2)c1	My 331/88				MIC		16 µM
O=c1[nH]c2c(Cl)c(Cl)ccc2c(O)c1N=Nc1ccccc1	H37Rv		6.25 µg/mL	resazurin	inhibition		85%
N#C[B][n+]1ccc(C(=O)NNCC(F)(F)F)cc1			0.5 µM	BACTEC	inhibition		0%
COc1ccc2oc(=S)n(-c3ccc(Br)cc3)c(=S)c2c1	My 331/88	21 d			MIC		16 µM
CC(=O)N1N=C2C3CCN(CC3)C2C1c1cccc2ccccc12	18b			resazurin	MIC		16 µg/mL
Fc1ccc(-c2c(C(c3ccccc3)n3ccnc3)cnn2-c2ccc(F)cc2F)cc1	ATCC 35828 (pyrazinamide-resistant)				MIC50		≥100 µM
O=c1oc2ccc(Cl)cc2c(=S)n1-c1ccc(C(F)(F)F)cc1	My 331/88	14 d			MIC		4 µM
CCCCOc1cccc(NC(=O)OCCN2CCCCC2)c1	My 331/88				MIC		62.5 µM
CC(=O)NC[C@H]1CN(c2ccc(N3CCOCC3)c(F)c2)C(=O)O1	AZD5847-resistant 8.9				MIC	T460C Cys154Arg	16 µg/mL
Clc1ccc(-c2c(C(c3ccccc3)n3ccnc3)cnn2-c2ccc(Cl)cc2Cl)cc1	ATCC 35828 (pyrazinamide-resistant)				MIC90		>100 µM
CCOc1ccccc1CNCCNCc1ccc(OC(F)(F)F)cc1					MIC		50 µM
FC(F)(F)c1ccc(-n2c(=S)oc3ccc(Cl)cc3c2=S)cc1	My 331/88	14 d			MIC		4 µM
CO[C@H]1/C=C/O[C@@]2(C)Oc3c(C)c(O)c4c(O)c(c5c(c4c3C2=O)NC2(CCN(CC(C)C)CC2)N=5)=NC(=O)/C(C)=C\C=C\[C@H](C)[C@H](O)[C@@H](C)[C@@H](O)[C@@H](C)[C@H](OC(C)=O)[C@@H]1C	2275 (rifampin-resistant)				MBC		0.8 µg/mL
COc1cc(CNCCNCc2ccccc2F)cc(OC)c1OC					MIC		50 µM
NC1CCN(c2nc3c(cc2F)c(=O)c(C(=O)O)cn3-c2ccc(F)cc2F)C1	ATCC35838				MIC		>8 µg/mL
CCOC(=O)Nc1cc(N(C)/N=C/c2ccccc2)c([N+](=O)[O-])c(Cl)n1	H37Rv		12.5 µg/mL		inhibition		0%
CCOC(=O)C1=NN(c2ccccc2)C(=O)C1N=Nc1ccc(S(=O)(=O)Nc2ccccn2)cc1	H37Rv			BACTEC	MIC bound		>12.5 µg/mL
CCCCNC(=O)Oc1ccc2c(c1)OC(=O)C2	Clinical isolate			resazurin	MIC		4 µg/mL
CC(O)CN1CCN(CC(C)O)CC1	H37Rv			BACTEC	MIC bound		>12.8 µg/mL
Cc1cccc(N=Nc2c(O)c3ccc(C)cc3[nH]c2=O)c1	H37Rv			resazurin	MIC		<6.25 µg/mL
COCCCn1cnn2c(=O)c3ccccc3nc2c1=O	H37Rv		6.25 µg/mL	resazurin	inhibition		17%
CC(=O)NC[C@H]1CN(c2ccc(N3CCOCC3)c(F)c2)C(=O)O1	Strain 5				MIC		0.5 µg/mL
NNC(=O)C1C(O)CCC2CN3CCc4c([nH]c5ccccc45)C3CC21	H37Rv			BACTEC	MIC		≥12.5 µg/mL
Cc1cc(-c2cc3c(cc2F)c(=O)c(C(=O)O)cn3C2CC2)cc(C)n1	131-4				MBC		1 µg/mL
O=c1ssc2ncccc12	H37Rv		12.5 µg/mL	BACTEC	inhibition		100%
CC1COc2c(N3CCN(C)CC3)c(F)cc3c(=O)c(C(=O)O)cn1c23	ATCC 35830				MBC		2 µg/mL
CCCCCCOc1ccc(NC(=O)OCCN2CCOCC2)cc1	My 331/88				MIC		16 µM
O=C1c2[nH]c(=O)[nH]c(=O)c2CN1Cc1ccccc1	H37Rv		12.8 µg/mL	BACTEC	inhibition		30%
COc1ccc(CCC2CCc3ccccc3N2C)cc1OC	MT10				MIC		>100 µg/mL
COc1cccc(NC(=O)OCC[NH+]2CCCC2)c1	My 331/88				MIC		1000 µM
CC(=O)Oc1ccccc1C(=O)Nc1ncc([N+](=O)[O-])s1	X spoligotype 70			visual reading	MIC		16 µg/mL
CC1COc2c(N3CCN(C)CC3)c(F)cc3c(=O)c(C(=O)O)cn1c23	ATCC 35828 (pyrazinamide-resistant)				MIC90		2.8 µM
CCOC(=O)Nc1cc2[nH]cnc2c(Cl)n1	H37Rv				EC50		>12.5 µg/mL
COC(=O)Cn1ccc2ccc(S(=O)(=O)N3CCCCC3)cc21	18b			resazurin	MIC		4 µg/mL
CO[C@H]1/C=C/O[C@@]2(C)Oc3c(C)c(O)c4c(=O)c(c5oc6cc(N7CCN(CC(C)C)CC7)cc(=O)c6nc5c4c3=C2O)NC(=O)/C(C)=C\C=C\[C@H](C)[C@H](O)[C@@H](C)[C@@H](O)[C@@H](C)[C@H](OC(C)=O)[C@@H]1C	2831 (rifampin-sensitive)				MBC		0.012 µg/mL
Cc1c2cnccc2c(C)c2c1c1ccccc1n2CCCCCCNCc1ccccc1	H37Rv			resazurin	MIC bound		<6.25 µg/mL
CCOC(=O)Nc1cc(NC(CC)C(=O)c2ccccc2)c([N+](=O)[O-])c(N)n1	H37Rv				EC50		>12.5 µg/mL
NNC(=O)c1ccncc1	Isolate 14				MIC		1 µg/mL
CC[C@@H](CO)NCCN[C@@H](CC)CO	18b			resazurin	MIC		1 µg/mL
Fc1ccc(-c2c(C(c3ccccc3)n3ccnc3)cnn2-c2ccccc2)cc1	ATCC 27294				MIC50		≥100 µM
Cc1cc(C)c2c(c1)C(O)(N1CCCC(C)C1)C(=O)N2	Clinical isolate			resazurin	MIC		16 µg/mL
C/C=C1\Oc2ccc(OC)cc2S1(=O)=O	H37Rv		12.5 µg/mL	BACTEC	inhibition		10%
CCOC(=O)Nc1cc2[nH]c(-c3ccc(OC)cc3)nc2c(N(CCc2ccccc2)Cc2ccccc2)n1	H37Rv				EC50		<12.5 µg/mL
CC[C@H]1OC(=O)[C@H](C)[C@@H](O[C@H]2C[C@@](C)(OC)[C@@H](O)[C@H](C)O2)[C@H](C)[C@@H](O[C@@H]2O[C@H](C)C[C@H](N(C)C)[C@H]2O)[C@](C)(O)C[C@@H](C)CN(C)[C@H](C)[C@@H](O)[C@]1(C)O	DRUG-SUS				MIC90		>8 µg/mL
CC1CCCCN1.CC1CCCCN1C(=S)S	ETA-R				MIC		1.6 µg/mL
CN1c2ccccc2CCC1CCc1ccc2c(c1)OCO2	MT1				MIC		>339 µg/mL
O=c1[nH]c2cc(Cl)ccc2c(O)c1N=Nc1ccc(F)cc1	H37Rv			resazurin	MIC		<6.25 µg/mL
C[C@H]1COc2c(N3CCN(C)CC3)c(F)cc3c(=O)c(C(=O)O)cn1c23	ATCC 35820				MBC		0.5 µg/mL
Fc1ccccc1-n1ncc(C(c2ccccc2)n2ccnc2)c1-c1ccccc1	ATCC 35820 (streptomycin-resistant)				MIC50		≥100 µM
CCOC(=O)c1nc(C)cnc1N	H37Rv			BACTEC	MIC		≥12.5 µg/mL
NNC(=O)c1ccncc1	ATCC 35822 (isoniazid-resistant)				MIC90		≥100 µM
Cc1cccc(C)c1N=Nc1c(O)c2cccc([N+](=O)[O-])c2[nH]c1=O	H37Rv			resazurin	MIC		>6.25 µg/mL
CCOC(=O)c1nnc(SC)nc1SC	H37Rv		12.5 µg/mL	BACTEC	inhibition		0%
CCCOc1cccc(NC(=O)OCCN2CCCCC2)c1	My 331/88				MIC		125 µM
CC1=c2c(oc3cc(O)c(Nc4c(C)cc(O)cc4O)c(C)c23)=CC(=O)C1=Nc1c(C)cc(O)cc1O	H37Rv			BACTEC	MIC		≥12.5 µg/mL
c1ccc([C@H]2C[C@@H]2NCCNC23CC4CC(CC(C4)C2)C3)cc1					MIC		25 µM
O=C([C@@H](O)CO)N1CC=C(c2c(F)cc(N3C[C@H](COc4ccon4)OC3=O)cc2F)CC1	H37Rv INH-resistant (ATCC 35822)			broth dilution	MIC		1 µg/mL
Cc1occc1C(=S)Nc1ccc(Cl)c(C(=O)OC(C(C)C)C(C)C)c1	H37Rv		12.5 µg/mL	BACTEC	inhibition		82%
CO[C@H]1/C=C/O[C@@]2(C)Oc3c(C)c(O)c4c(O)c(c5c(c4c3C2=O)NC2(CCN(CC(C)C)CC2)N=5)=NC(=O)/C(C)=C\C=C\[C@H](C)[C@H](O)[C@@H](C)[C@@H](O)[C@@H](C)[C@H](OC(C)=O)[C@@H]1C	32 (rifampicin-susceptible)				MIC		≤0.062 µg/mL
CCOC(=O)Nc1cc(NCc2ccc(S(N)(=O)=O)cc2)c2ncc(C)nc2n1	H37Rv				EC50		>12.5 µg/mL
CC(C)=CCc1c2c(c3occ(-c4ccc(O)c(O)c4)c(=O)c3c1O)CCC(C)(C)O2	H37Rv			BACTEC	MIC bound		>12.5 µg/mL
NC[C@H]1O[C@H](O[C@H]2[C@H](O)[C@@H](O[C@H]3O[C@H](CO)[C@@H](O)[C@H](N)[C@H]3O)[C@H](N)C[C@@H]2N)[C@H](O)[C@@H](O)[C@@H]1O	Isolate 5				MIC		2 µg/mL
CC(=O)OC1C(=O)OCC23CCC4(C)OC4C2OC2CC(OC(=O)/C=C\C=C\C(=O)OCCC1C)C3(C)C13CC21O3	H37Rv		12.5 µg/mL	BACTEC	inhibition		17%
CC1COc2c(N3CCN(C)CC3)c(F)cc3c(=O)c(C(=O)O)cn1c23	001-005 (DRUG-SUS)				MIC		1 µg/mL
O=c1oc2ccc(Cl)cc2c(=S)n1-c1ccc(F)cc1	My 331/88	14 d			MIC		2 µM
CC1COc2c(N3CCN(C)CC3)c(F)cc3c(=O)c(C(=O)O)cn1c23	H37Rv (ATCC 35811)			broth dilution	MIC		0.5–1 µg/mL
O=C(CSc1nnc(-c2ccccc2NC(=O)C(F)(F)F)c(=O)[nH]1)NC(=O)Nc1ccccc1	H37Rv			BACTEC	MIC bound		>12.5 µg/mL
Fc1ccc(-n2ncc(C(c3ccccc3)n3ccnc3)c2-c2ccccc2)cc1	ATCC 35820 (streptomycin-resistant)				MIC50		≥100 µM
C[C@@H]1CN(c2c(F)c(N)c3c(=O)c(C(=O)O)cn(C4CC4)c3c2F)C[C@H](C)N1	Isolate 7				MIC		2 µg/mL
CO[C@H]1/C=C/O[C@@]2(C)Oc3c(C)c(O)c4c(O)c(c(/C=N/N5CCN(C)CC5)c(O)c4c3C2=O)NC(=O)/C(C)=C\C=C\[C@H](C)[C@H](O)[C@@H](C)[C@@H](O)[C@@H](C)[C@H](OC(C)=O)[C@@H]1C	PR1282				MIC		0.08 µg/mL
C[C@H]1C[C@H](N)CN1c1cc2c(cc1F)c(=O)c(C(=O)O)cn2-c1ccc(F)cc1F	DRUG-SUS				MBC90		>8 µg/mL
CCOC(=O)N(C)c1nn(-c2ccccn2)c(=O)n1C	H37Rv			resazurin	MIC bound		>6.25 µg/mL
CCOc1ccc(S(=O)(=O)[C@H]2CS(=O)(=O)C[C@@H]2NC2CCCC2)cc1	Clinical isolate			resazurin	MIC		16 µg/mL

8 of the rows above, restated:

smiles | strain or isolate | conditions | dose | method | endpoint | mutations | result
O=C([C@@H](O)CO)N1CC=C(c2c(F)cc(N3C[C@H](COc4ccon4)OC3=O)cc2F)CC1 | H37Rv INH-resistant (ATCC 35822) |  |  | broth dilution | MIC |  | 1 µg/mL
CC[C@@H](CO)NCCN[C@@H](CC)CO | 18b |  |  | resazurin | MIC |  | 1 µg/mL
NC1CCN(c2nc3c(cc2F)c(=O)c(C(=O)O)cn3-c2ccc(F)cc2F)C1 | ATCC35838 |  |  |  | MIC |  | >8 µg/mL
CC1COc2c(N3CCN(C)CC3)c(F)cc3c(=O)c(C(=O)O)cn1c23 | H37Rv (ATCC 35811) |  |  | broth dilution | MIC |  | 0.5–1 µg/mL
Cc1c2cnccc2c(C)c2c1c1ccccc1n2CCCCCCNCc1ccccc1 | H37Rv |  |  | resazurin | MIC bound |  | <6.25 µg/mL
CCOC(=O)C1=NN(c2ccccc2)C(=O)C1N=Nc1ccc(S(=O)(=O)Nc2ccccn2)cc1 | H37Rv |  |  | BACTEC | MIC bound |  | >12.5 µg/mL
CCOC(=O)c1nc(C)cnc1N | H37Rv |  |  | BACTEC | MIC |  | ≥12.5 µg/mL
CC(C)=CCc1c2c(c3occ(-c4ccc(O)c(O)c4)c(=O)c3c1O)CCC(C)(C)O2 | H37Rv |  |  | BACTEC | MIC bound |  | >12.5 µg/mL